According to PubChem BioAssay AID504884 (Broad Institute, 2011):
This is a selection; strong and weak results do not stand in their true shares. Some salts or complexes appear as unconnected parts, following the source record. Active and inactive are the calls of the source. Rule as the data show it: active = activity above about 50% (passing the limit was not always enough); inconclusive = no clear call, values can overlap the other calls.

These compounds were tested on DNA topoisomerase I (Yersinia pestis CO92) (assay: Yersinia pestis topoisomerase I inhibitors, primary screen, biochemical, cleavage product accumulation, plate reader, single point (AID 504884)). Details: Y. pestis Topo-I cleavage product accumulation, at 10 µM, active compounds read high.

Q: How did the activity turn out when `COc1ccc(OP(C)(=O)Nc2ccccn2)cc1` (stereo not drawn) was run?
A: inactive: -8.1%

Q: With `COc1ccccc1OP(C)(=O)Nc1ccc(Br)cc1` (stereo not drawn) as the compound, how does the activity read?
A: inactive: 4.03%

Q: For `CCc1ccc(OP(C)(=O)O)cc1`, which activity is on record?
A: inactive: 0.866%

Q: For `CP(=O)(Nc1ccccn1)Oc1ccccc1` (stereo not drawn), which activity is on record?
A: inactive: 4.57%

Q: How did the activity turn out when `COc1ccccc1OP(C)(=O)Nc1ccc(C)cc1C` (stereo not drawn) was run?
A: inactive: 6.2%

Q: `O=[N+]([O-])c1cc([N+](=O)[O-])c(Nc2ccccn2)c([N+](=O)[O-])c1` was tested. Which activity did it give?
A: inactive: -0.0292%

Q: Which activity does the source give for `Cc1c(NP(C)(=O)Oc2ccc(C(C)C)cc2)c(=O)n(-c2ccccc2)n1C` (stereo not drawn) here?
A: inactive: -4.31%

Q: Which activity does the source give for `COc1ccc(OP(C)(=O)Nc2ccccc2Br)cc1` (stereo not drawn) here?
A: inactive: 6.08%

Q: `COc1ccccc1OP(C)(=O)Nc1ccc(C)c(C)c1` (stereo not drawn) was tested. Which activity did it give?
A: inactive: 13.3%

Q: With `O=C1C(O)=C([N+](=O)[O-])C(=O)C(O)=C1[N+](=O)[O-]` as the compound, how does the activity read?
A: inactive: -7.31%

Q: Which activity does the source give for `Cc1cc(C)cc(OP(C)(=O)Nc2cccc(C(F)(F)F)c2)c1` (stereo not drawn) here?
A: inactive: 25.7%

Q: With `CP(=O)(OCCOc1ccccc1)OCCOc1ccccc1` as the compound, how does the activity read?
A: inactive: 8.68%

Q: How did the activity turn out when `CP(=O)(Nc1ccc(Cl)cc1Cl)Oc1ccccc1` (stereo not drawn) was run?
A: inactive: 11.7%

Q: Which activity does the source give for `CCCCCCCCCCCCCCCC1C[N+](C)(C)CCOP(C)(=O)O1` (stereo not drawn) here?
A: inactive: -35.1%

Q: How did the activity turn out when `COc1ccc(OP(C)(=O)Nc2ccc(SC(F)(F)F)cc2)cc1` (stereo not drawn) was run?
A: inactive: 15.8%

Q: `CCOC(=O)c1ccc(NP(C)(=O)Oc2ccc(F)cc2)cc1` (stereo not drawn) was tested. Which activity did it give?
A: inactive: 5.46%

Q: With `O=[N+]([O-])c1cc([N+](=O)[O-])c(OC2CCCCC2O)c([N+](=O)[O-])c1` (stereo not drawn) as the compound, how does the activity read?
A: inactive: -8.32%

Q: With `CCCCCOc1ccc(NP(C)(=O)Oc2ccc(Cl)cc2Cl)cc1` (stereo not drawn) as the compound, how does the activity read?
A: inactive: 17.2%

Q: How did the activity turn out when `CP(=O)(Nc1ccccc1)Oc1ccc(F)cc1` (stereo not drawn) was run?
A: inactive: -12%

Q: With `CCN(CC)CCCOC(=O)C(O)(c1ccccc1)C1CCCCC1` (stereo not drawn) as the compound, how does the activity read?
A: inactive: -7.87%

Q: For `Cc1c([N+](=O)[O-])cc([N+](=O)[O-])c(Br)c1[N+](=O)[O-]`, which activity is on record?
A: inactive: -5.9%

Q: With `CC(C)c1ccc(OP(C)(=O)Nc2ccc(SC(F)(F)F)cc2)cc1` (stereo not drawn) as the compound, how does the activity read?
A: inactive: 36.4%

Q: `CP(=O)(Nc1ccccc1F)Oc1ccccc1` (stereo not drawn) was tested. Which activity did it give?
A: inactive: -8.98%

Q: Which activity does the source give for `O=[N+]([O-])c1cc([N+](=O)[O-])c(Nc2ccc(Cl)cc2)c([N+](=O)[O-])c1` here?
A: inactive: -13.8%

Q: `COc1ccc2c(c1O)-c1c(O)c(OC)cc3c1[C@H](C2)[N+](C)(C)CC3.O=[N+]([O-])c1cc([N+](=O)[O-])c([O-])c([N+](=O)[O-])c1[O-]` was tested. Which activity did it give?
A: inactive: -7.14%

Q: With `O=C(OCCN1CCN(CCOCc2ccccc2)CC1)C(O)(c1ccccc1)c1ccccc1` as the compound, how does the activity read?
A: inactive: 11.3%

Q: How did the activity turn out when `O=C(OC1CN2CCC1CC2)c1ccc([N+](=O)[O-])cc1` (stereo not drawn) was run?
A: inactive: -9.04%

Q: For `CCOP(C)(=S)SCC(=O)NC(C)(CC)C(=O)O` (stereo not drawn), which activity is on record?
A: inactive: -3.46%

Q: With `CP(=O)(Nc1ccc(SC(F)(F)F)cc1)Oc1ccc(F)cc1` (stereo not drawn) as the compound, how does the activity read?
A: inactive: 8.38%

Q: Which activity does the source give for `Cc1ccccc1NP(C)(=O)Nc1ccccc1C` here?
A: inactive: -0.447%

Q: `CP(=O)(Nc1ccc2c(c1)OCCO2)Oc1ccccc1` (stereo not drawn) was tested. Which activity did it give?
A: inactive: 2.16%

Q: `COc1ccc(NP(C)(=O)Oc2ccccc2OC)cc1` (stereo not drawn) was tested. Which activity did it give?
A: inactive: 3.45%

Q: With `CN(C)CCOC(=O)C(O)(c1ccccc1)C1CCCCC1` (stereo not drawn) as the compound, how does the activity read?
A: inactive: 5.6%

Q: Which activity does the source give for `COc1ccc(OP(C)(=O)Nc2cccc(Br)c2)cc1` (stereo not drawn) here?
A: inactive: 15.5%

Q: `Cc1c(C(c2ccc3c(c2)OCO3)c2c(C)n(C)n(-c3ccccc3)c2=O)c(=O)n(-c2ccccc2)n1C.O=[N+]([O-])c1cc([N+](=O)[O-])c(O)c([N+](=O)[O-])c1` was tested. Which activity did it give?
A: inactive: -3.93%

Q: With `O=[N+]([O-])c1cc([N+](=O)[O-])c(NCC2CCS(=O)(=O)C2)c([N+](=O)[O-])c1` (stereo not drawn) as the compound, how does the activity read?
A: inactive: 1.88%

Q: `Cc1cc(-c2cccc3ccccc23)c(C)cn1.O=[N+]([O-])c1cc([N+](=O)[O-])c(O)c([N+](=O)[O-])c1` was tested. Which activity did it give?
A: inactive: 23.8%

Q: For `O=[N+]([O-])c1ccc(OP2(=O)COCCO2)cc1` (stereo not drawn), which activity is on record?
A: inactive: -3.74%
